HIV-1 NL4-3 point mutations in Gag: replication capacity

The measurements come from Al-Mawsawi et al. 2014 (doi:10.1186/s12977-014-0124-6).

Protein: Gag of HIV-1 NL4-3, numbered from its first residue. Gag is numbered as the whole polyprotein.
"Other frame" gives the effect on an overlapping gene as the source lists it; other overlaps (genes, RNA elements) are not shown.

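Random point mutant libraries of HIV-1 NL4-3, one for each of seven fragments, were passaged in CEM T lymphocytes. The RC index is the frequency of a change after passage round 2 divided by its frequency in the plasmid library.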

Values are the RC index; higher means better tolerated. The authors read about 0.1 or less as lethal, 0.1-0.2 as attenuated and 0.2 or more as tolerated.
Each entry names the wild-type residue, its position and the residue put in its place.
Clones carried about five changes per kilobase, which can drag down the index of neutral changes.

mutation	base	region	other frame	RC
S6T	T805A	MA	none	0.0329
S6A	T805G	MA	none	0.0420
L13F	A828T	MA	none	0.0279
P23A	C856G	MA	none	0.179
K32I	A884T	MA	none	0.0603
A37E	C899A	MA	none	0.0862
R39K	G905A	MA	none	0.275
F44S	T920C	MA	none	0.0622
I60T	T968C	MA	none	0.0417
Q65R	A983G	MA	none	0.0690
E74G	A1010G	MA	none	0.0498
A83S	G1036T	MA	none	0.127
V84L	G1039C	MA	none	0.124
H89N	C1054A	MA	none	0.234
R91K	G1061A	MA	none	0.492
I92V	A1063G	MA	none	0.127
D93H	G1066C	MA	none	0.116
T97P	A1078C	MA	none	0.0869
L101I	T1090A	MA	none	0.101
E105V	A1103T	MA	none	0.940
Q108H	A1113T	MA	none	0.0432
K113N	A1128C	MA	none	0.106
A118P	G1141C	MA	none	0.0488
A118G	C1142G	MA	none	0.0458
D121E	C1152G	MA	none	0.0309
N131S	A1181G	MA	none	0.0291
Y132H	T1183C	MA	none	0.0732
P133R	C1187G	CA	none	0.0289
Q139E	C1204G	CA	none	0.0752
Q141R	A1211G	CA	none	0.0839
Q141H	A1212C	CA	none	0.0523
M142K	T1214A	CA	none	0.0537
I147V	A1228G	CA	none	0.0330
T151I	C1241T	CA	none	0.288
N153D	A1246G	CA	none	0.103
V156E	T1256A	CA	none	0.0693
K157E	A1258G	CA	none	0.0648
V168E	T1292A	CA	none	0.0380
S173T	T1306A	CA	none	0.159
L188I	C1351A	CA	none	0.0184
L188Q	T1352A	CA	none	0.0399
H194N	C1369A	CA	none	0.101
H194Q	T1371A	CA	none	0.0689
Q195H	A1374T	CA	none	0.0244
L201I	T1390A	CA	none	0.0588
L201F	A1392T	CA	none	0.0517
K202E	A1393G	CA	none	0.0357
E208D	A1413T	CA	none	0.0881
E211G	A1421G	CA	none	0.0636
D213N	G1426A	CA	none	0.310
R214S	A1431T	CA	none	0.0583
P217R	C1439G	CA	none	0.0786
G221E	G1451A	CA	none	0.177
I223N	T1457A	CA	none	0.0584
I223T	T1457C	CA	none	0.327
M228K	T1472A	CA	none	0.0272
P231S	C1480T	CA	none	0.0669
R232K	G1484A	CA	none	0.365
S234C	A1489T	CA	none	0.0619
T240I	C1508T	CA	none	0.0588
M250T	T1538C	CA	none	0.0691
N253D	A1546G	CA	none	0.115
I256N	T1556A	CA	none	0.0173
V258A	T1562C	CA	none	0.120
I266M	A1587G	CA	none	0.0394
M276I	G1617T	CA	none	0.237
Y277H	T1618C	CA	none	0.0862
T280N	C1628A	CA	none	0.119
S281R	A1630C	CA	none	0.229
D295E	C1674A	CA	none	0.126
Y296H	T1675C	CA	none	0.0943
L304P	T1700C	CA	none	0.0855
Q308R	A1712G	CA	none	0.0343
P328T	C1771A	CA	none	0.289
P328S	C1771T	CA	none	0.106
G338E	G1802A	CA	none	0.313
G354E	G1850A	CA	none	0.301
P356H	C1856A	CA	none	0.0442
M367T	T1889C	p2	none	0.0446
M377I	G1920A	p2	none	0.542
N382D	A1933G	NC p7	none	0.0244
F383S	T1937C	NC p7	none	0.0487
H400Q	C1989A	NC p7	none	0.218
M423K	T2057A	NC p7	none	0.0522
E428K	G2071A	NC p7	none	0.640
R429G	A2074G	NC p7	none	0.117
P439H	C2105A	p1	none	0.0353
G443R	G2116A	p1 / p6*	p6* G3E	0.0991
R444S	G2121T	p1 / p6*	p6* A5S	0.105

Extract of 9 entries:

* F383S (base T1937C, region NC p7) -> 0.0487
* L13F (base A828T, region MA) -> 0.0279
* E428K (base G2071A, region NC p7) -> 0.640
* V156E (base T1256A, region CA) -> 0.0693
* T240I (base C1508T, region CA) -> 0.0588
* Q195H (base A1374T, region CA) -> 0.0244
* E211G (base A1421G, region CA) -> 0.0636
* S6T (base T805A, region MA) -> 0.0329
* I147V (base A1228G, region CA) -> 0.0330

Nucleotide positions follow pNL4-3.
An index over 1, which the authors read as above wild type, was rare (1.9% of all changes in the genome).